Data as given in PubChem BioAssay AID624099 (ICCB-Longwood, 2012).
Aim: 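Human genes that papillomavirus E2 requires to repress the HPV18 LCR promoter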 (primary screen). Cell system: human C33A cervical carcinoma cells (HPV-negative) stably expressing BPV1 E2 and an HPV18 LCR luciferase reporter. Reagent: siRNA pool against human genes, 40 nM. Timing: 72 h. Measurement: 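Per-well luciferase luminescence, z-scored on each plate against the plate mean and SD with control wells left out, then averaged across three replicate plates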. Direction: mean z-score and z-score: higher = stronger reporter signal, weaker E2 silencing. Active means: 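Hit if mean z-score reaches 2 and two or more of three replicate z-scores also reach 2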.
The deposit covers about 21,000 reagents; below is an unselected part. Over the whole deposit, 497 (2.4%) were called active. 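Higher z means weaker E2 silencing; only reporter increases were scored, and knock-downs that hurt cell survival may mask genuine repressor factors.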 Reagents against one gene are numbered here. No sequences are given here.

| target gene | pool no. | mean z-score | z-score, replicate A | z-score, replicate B | z-score, replicate C | outcome |
| --- | --- | --- | --- | --- | --- | --- |
| LINC00472 (long independently transcribed non-coding RNA 472) | 1 | -0.2 | 0 | -0.53 | -0.07 | inactive |
| LRRC59 (leucine rich repeat containing 59) | 1 | -0.41 | -0.67 | -0.25 | -0.31 | inactive |
| FLJ10088 (retired record) | 1 | -0.76 | -0.79 | -0.44 | -1.05 | inactive |
| RNASEL (ribonuclease L) | 1 | 0.51 | 0.5 | 0.82 | 0.2 | inactive |
| PARM1 (prostate androgen-regulated mucin-like protein 1) | 1 | 0.78 | 0.62 | 1.08 | 0.64 | inactive |
| SLC22A1 | 1 | -0.37 | -0.1 | -0.23 | -0.78 | inactive |
| ABRA (actin binding Rho activating protein) | 1 | 1.52 | 1.38 | 1.68 | 1.5 | inactive |
| BBS2 (Bardet-Biedl syndrome 2) | 1 | 0.53 | 0.32 | 0.55 | 0.71 | inactive |
| GPR151 (G protein-coupled receptor 151) | 1 | 0.06 | -0.29 | 0.32 | 0.16 | inactive |
| TPR (translocated promoter region, nuclear basket protein) | 1 | 0.74 | 0.51 | 0.73 | 0.99 | inactive |
| GRAMD1B (GRAM domain containing 1B) | 1 | -0.27 | -0.29 | -0.04 | -0.47 | inactive |
| VTI1A (vesicle transport through interaction with t-SNAREs 1A) | 1 | 0.83 | 0.15 | 0.82 | 1.52 | inactive |
| VTI1A (vesicle transport through interaction with t-SNAREs 1A) | 2 | 0.07 | -0.59 | 0.19 | 0.62 | inactive |
| SLC33A1 | 1 | 0.71 | 0.75 | 0.71 | 0.65 | inactive |
| CST9L (cystatin 9 like) | 1 | 0.06 | -0.24 | 0.38 | 0.03 | inactive |
| MROH9 (maestro heat like repeat family member 9) | 1 | -0.03 | -0.03 | -0.11 | 0.06 | inactive |
| TOMM34 (translocase of outer mitochondrial membrane 34) | 1 | -0.22 | -0.08 | -0.54 | -0.05 | inactive |
| RPL35 (ribosomal protein L35) | 1 | -1.77 | -1.55 | -1.42 | -2.35 | inactive |
| KLHDC8A (kelch domain containing 8A) | 1 | 0.26 | 0.08 | 0.32 | 0.4 | inactive |
| SPRED3 (sprouty related EVH1 domain containing 3) | 1 | -2.23 | -1.7 | -2.4 | -2.6 | inactive |
| PGRMC2 (progesterone receptor membrane component 2) | 1 | -0.15 | -0.13 | -0.32 | 0.01 | inactive |
| CHLSN (cholesin) | 1 | -0.73 | -0.85 | -0.75 | -0.6 | inactive |
| GLI2 (GLI family zinc finger 2) | 1 | -2.31 | -1.9 | -2.77 | -2.25 | inactive |

Records above whose gene name starts with R or r:
| target gene | pool no. | mean z-score | z-score, replicate A | z-score, replicate B | z-score, replicate C | outcome |
| --- | --- | --- | --- | --- | --- | --- |
| RNASEL (ribonuclease L) | 1 | 0.51 | 0.5 | 0.82 | 0.2 | inactive |
| RPL35 (ribosomal protein L35) | 1 | -1.77 | -1.55 | -1.42 | -2.35 | inactive |
